Compound potency records, mixed from different reports. Data source: NIAID ChemDB in PubChem.

Shared fields: toxicity to cultured cells; cell line: HEL; measure: CC50

Rows are shuffled and stem from different studies.

SMILES | result
Cc1cn([C@@H]2O[C@H](CO)[C@@H](O)[C@@H]2O)c(=O)[nH]c1=O | 232 µM
C(/C=C/c1ccccc1)=C\c1ccccc1 | >50 µM
CC#Cc1cn([C@@H]2O[C@H](CO)[C@@H](O)[C@@H]2O)c(=O)[nH]c1=O | >567 µM
Nc1ncnc2c1ncn2C[C@H]1COP(=O)(O)CO1 | 40 µg/mL
O=c1[nH]c(=O)n([C@H]2C[C@H](O)[C@@H](CO)O2)cc1-c1ccc(Cl)s1 | 290 µM
Nc1nc2c(ncn2COCCO)c(=O)[nH]1 | ≥800 µM
Br[C@H](c1ccccc1)[C@H](Br)c1ccccc1 | >50 µM
O=c1ccn([C@H]2C[C@H](O)[C@@H](CO)S2)c(=O)[nH]1 | >200 µM
C[C@H]1C[C@@H](n2cnc3c(N)ncnc32)[C@H](O)[C@@H]1O | 10 µg/mL
Cc1cn([C@@H]2O[C@H](CO)[C@@H](O)[C@@H]2F)c(=O)[nH]c1=O | 1.5 µM
C=C[C@H]1C[C@@H](n2cnc3c(N)ncnc32)[C@H](O)[C@@H]1O | 50 µg/mL
O=c1[nH]c(=O)n([C@H]2C[C@H](O)[C@@H](CO)O2)cc1C1CCCC1 | >150 µM
Nc1nc(N)c2ncn(CC(CO)OCP(=O)(O)O)c2n1 | >200 µg/mL
Cc1cn([C@@H]2O[C@H](CO)C[C@@H]2O)c(=O)[nH]c1=O | >661 µM
C(=C\c1ccccc1)/c1ccccc1 | >50 µM
C[C@@H]1C[C@@H](n2cnc3c(N)ncnc32)[C@H](O)[C@@H]1O | 200 µg/mL
Nc1ccn(C[C@@H](CO)OCP(=O)(O)O)c(=O)n1 | 50 µg/mL
CCCCOC(=O)c1ccccc1OP1(=O)CO[C@@H](Cn2cnc3c(N)nc(N)nc32)CO1 | 168 µM
O=C(O)/C=C/c1ccc(O)c(O)c1.O=C(O)CCc1ccc(O)c(O)c1 | 76 µg/mL
Nc1nc(N)c2ncn(C[C@H]3COP(=O)(OCC(F)(F)F)CO3)c2n1 | ≥219 µM
Nc1nc(N)c2ncn(CCOCP(=O)(O)O)c2n1 | 40 µg/mL
COC(=O)c1cc(O)c(O)c(O)c1 | 63 µg/mL
Nc1ncnc2c1ncn2[C@H]1[C@H](O)[C@H](O)[C@@H](CO)[C@H]1F | 0.038 µg/mL
Nc1nc2c(ncn2[C@@H]2O[C@H](CO)[C@H]2CO)c(=O)[nH]1 | 300 µM
O=C(O)/C=C/c1ccc(O)c(O)c1 | 95 µg/mL
CCCCCCCCCCCCCCCCOCCCOP1(=O)CO[C@@H](Cn2cnc3c(N)nc(N)nc32)CO1 | 13.7 µM
Nc1nccc2c1ncn2C[C@@H](CO)OCP(=O)(O)O | 62 µM
O=c1[nH]c(=O)n([C@H]2C[C@H](O)[C@@H](CO)O2)cc1/C=C/Br | ≥600 µM
CCc1cn([C@@H]2O[C@H](CO)[C@@H](O)[C@@H]2F)c(=O)[nH]c1=O | >584 µM
c1ccc([C@H]2O[C@@H]2c2ccccc2)cc1 | >50 µM
Nc1nc2c(ncn2CCOCP(=O)(O)O)c(=O)[nH]1 | 2.5 µg/mL
CCCCCCCCCCCCCCCCOCCCOP(=O)([O-])CO[C@H](CO)Cn1cnc2c(N)nc(N)nc21 | >161 µM
NCC(=O)c1ccc(O)c(O)c1 | ≥200 µg/mL
Nc1nccc2c1ncn2[C@@H]1C[C@H](CO)[C@@H](O)[C@H]1O | 85 µg/mL

3 of the rows above, restated:

| SMILES | result |
|---|---|
| Nc1nc2c(ncn2COCCO)c(=O)[nH]1 | ≥800 µM |
| Nc1nc(N)c2ncn(CCOCP(=O)(O)O)c2n1 | 40 µg/mL |
| Cc1cn([C@@H]2O[C@H](CO)C[C@@H]2O)c(=O)[nH]c1=O | >661 µM |

CCn is the concentration with n% toxicity to the cells.